Compound potency records, mixed from different reports. Data source: NIAID ChemDB in PubChem.

Common to all: whole-cell or culture tests

ECn: concentration that inhibits the pathogen or its effect by n%. A number after MIC or MFC names an inhibition level or a share of isolates. Percent inhibition refers to the dose given; in toxicity tests it is the harm to the cells. An empty or dashed field is not shown. Neighbouring rows are from separate reports. Two numbers with a dash give a range or band.

smiles,agent,strain or isolate,cells,method,measure,dose,result
O=S(=O)(O)c1cccc2c(O)cccc12,Herpes simplex virus,,Human amnion AV3 cells,cytopathic effect,inhibition,5 µg/mL,0%
COc1cc(CNC(=O)c2c3n(c(=O)n2-c2ccc(OC(C)C)cc2)CCN(C(=O)c2ccc(Br)c(Cl)c2)C3)ccc1C#N,Hepatitis B virus,,HepG2.117,PCR,EC50,,0.5–5 µM
C=CCc1ccc(O)c(OC)c1,Candida albicans,3054,,turbidity,MIC90,,500 µg/mL
C/C=C\[C@@H]1C[C@H](C(=O)O)N[C@H]1[C@@H](NC(C)=O)[C@](C)(CCC)OC,Influenza B virus,Memphis/20/96,MDCK,plaque count,EC50,,<0.01 µg/mL
CCO/N=C/c1ccc(OCCC2CCN(c3ccc(Cl)nn3)CC2)cc1,Rhinovirus,FO2-2317 (ICAM-1 receptor group 68),KB,neutral red,EC50,,0.059 µM
O=C1C(c2[nH]c3ccc(S(=O)(=O)O)cc3c2O)=Nc2ccc(S(=O)(=O)O)cc21,Rhinovirus,,Human amnion AV3 cells,cytopathic effect,inhibition,50 µg/mL,0%
CC(C)CN1CCCn2c(c3n(c2=O)CCN(C(=O)c2ccc(Br)c(Cl)c2)C3)C1=O,Hepatitis B virus,,HepG2.117,PCR,EC50,,>5 µM
CCOC(=O)c1cnc(NCCCCNc2ccnc3cc(Cl)ccc23)nc1C,Cryptococcus neoformans,ATCC 62066,,,MIC99,,8 µg/mL
C[C@@H](NC(=O)c1c2n(c(=O)n1-c1ccc(OC3CC3)cc1)CCN(C(=O)c1ccc(Br)c(Cl)c1)C2)c1ccc(OCC(N)=O)cc1-n1cccn1,Hepatitis B virus,,HepG2.117,PCR,EC50,,>0.5 µM
O=c1[nH]c(=O)n([C@@H]2O[C@H](CO)[C@@H](O)[C@@H]2O)cc1/C=C/Br,Varicella zoster virus,KANNO,HELF,plaque count,inhibition,0.01 µg/mL,100%
Oc1ccccc1N=Cc1ccccc1,Cryptococcus neoformans,ATCC 24067,,,MIC99,,5.7 µg/mL
COc1ccc(-n2c(C(=O)N[C@H]3CCc4ccccc43)c3n(c2=O)CCN(C(=O)c2ccc(Br)c(Cl)c2)C3)cc1,Hepatitis B virus,,HepG2.117,PCR,EC50,,0.5–5 µM
Cc1cn([C@@H]2O[C@H](CO)[C@@H](O)[C@@H]2O)c(=O)[nH]c1=O,Varicella zoster virus,YS,HELF,plaque count,inhibition,0.1 µg/mL,0%
CCOC(=O)/C=C/[C@H](C[C@@H]1CCNC1=O)NC(=O)[C@@H](CC(=O)[C@@H](NC(=O)c1cc(C)on1)C(C)C)Cc1ccc(F)cc1,Rhinovirus,Isolate 10,OHIO HELA-I,cytopathic effect / visual reading,EC50,,0.01 µg/mL
O=c1[nH]c(=O)n([C@@H]2O[C@H](CO)[C@@H](O)[C@@H]2O)cc1/C=C/Cl,Varicella zoster virus,OKA,HELF,plaque count,inhibition,0.001 µg/mL,78%
Nc1nc2c(ncn2COC(CO)CO)c(=O)[nH]1,Human cytomegalovirus,VR6189 (ganciclovir-susceptible),,plaque count,EC90,,3.5 µM
O=S(=O)([O-])c1cccc(O)c1,Adenovirus,TYPE 3,Human embryonic lung cells,cytopathic effect,inhibition,50 µg/mL,0%
C=Cc1cn([C@@H]2O[C@H](CO)[C@@H](O)[C@@H]2O)c(=O)[nH]c1=O,Varicella zoster virus,Ohtomo,HELF,plaque count,inhibition,0.01 µg/mL,74%
O=C(Nc1ccc2c(O)c(N=Nc3ccc(N=Nc4ccc(S(=O)(=O)O)cc4)cc3)c(S(=O)(=O)O)cc2c1)c1ccccc1,Adenovirus,TYPE 3,Human amnion AV3 cells,cytopathic effect,inhibition,50 µg/mL,0%
Oc1ccccc1N=Cc1ccc(O)c(O)c1O,Cryptococcus neoformans,96806,,,MIC99,,11.3 µg/mL
Nc1nc(=O)n([C@@H]2O[C@H](CO)[C@@H](O)[C@@H]2F)cc1I,Varicella zoster virus,Kawaguchi,HELF,plaque count,inhibition,0.001 µg/mL,0%
CCOC(=O)c1c(C)nc(OCCCNc2ccnc3cc(Cl)ccc23)nc1-c1ccccc1,Cryptococcus gattii,196L/03,,,MIC99,,8 µg/mL
O=S(=O)([O-])c1ccc2c(NS(=O)(=O)c3ccccc3)cc(S(=O)(=O)[O-])cc2c1,Herpes simplex virus,,Human amnion AV3 cells,cytopathic effect,inhibition,10 µg/mL,0%
Oc1ccccc1C=Nc1ccccc1O,Cryptococcus neoformans,C-3-1,,broth dilution,MIC,,4 µg/mL
CCC(CC)[C@H](NC(C)=O)[C@@H]1[C@H](O)[C@@H](C(=O)O)C[C@H]1N=C(N)N,Influenza A virus,H1N1 A/PR/8/34,MDCK,visual reading,EC50,,0.21 µM
Nc1ccc(S(=O)(=O)O)cc1,Herpes simplex virus,,Human amnion AV3 cells,cytopathic effect,inhibition,50 µg/mL,10%
CCOC(=O)c1c(C)nc(NCCCCNc2ccnc3cc(Cl)ccc23)nc1-c1ccccc1[N+](=O)[O-],Cryptococcus neoformans,27JF,,,MIC99,,4 µg/mL